Compound potency records, mixed from different reports. Data source: NIAID ChemDB in PubChem.

Shared fields: toxicity to cultured cells; cells: CEM; read by: XTT; read-out: CC50

Neighbouring rows are from separate reports.

compound | result
COc1ccc(N2CCN(CN3C(=O)C(=Nc4ccc(S(=O)(=O)Nc5nc(C)cc(C)n5)cc4)c4cc(F)ccc43)CC2)cc1 | 35.2 µM
COc1nc(N)c(N=C[C@@H](O)[C@@H](O)[C@H](O)CO)c(=O)n1C | >830 µM
Nc1nc2c(ncn2[C@H]2C=C[C@@H](CO)C2)c(=O)[nH]1 | 189 µg/mL
COc1cc(Cc2cnc(/N=C3\C(=O)N(CN4CCN(Cc5ccccc5)CC4)c4ccc(F)cc43)nc2N)cc(OC)c1OC | 112 µg/mL
Cc1cc2c(cc1Cl)SC1=NC(CSCc3ccccc3)CN1S2(=O)=O | >200 µM
Cc1cc(C)nc(NS(=O)(=O)c2ccc(N=C3C(=O)N(CN4CCN(c5cc6c(cc5F)c(=O)c(C(=O)O)cn6C)CC4C)c4ccccc43)cc2)n1 | 116 µM
Cc1cc(S(=O)(=O)n2cccc2)c(SCC(=O)c2ccc(Br)cc2)cc1Cl | 25.3 µM
CCn1cc(C(=O)O)c(=O)c2cc(F)c(N3CCN(CC(=O)N4C(=O)c5cccnc5N(C5CC5)c5nccc(C)c54)CC3)cc21 | >200 µM
O=C(NCCc1ccc(O)c(O)c1)c1cc2cc(O)c(O)cc2[nH]1 | 10 µM
CO[C@@H]1N([C@H]2C[C@H](F)[C@@H](CO)O2)C(=O)NC(=O)[C@@]1(C)Br | 9.72 µM
CC(=O)Sc1ccccc1C(=O)NCCC(N)=O | >100 µM
CCn1cc(C(=O)O)c(=O)c2cc(F)c(N3CCN(CN4C(=O)/C(=N\c5ncc(Cc6cc(OC)c(OC)c(OC)c6)c(N)n5)c5cc(F)ccc54)CC3)cc21 | 139 µg/mL
O=C(NCCCCCCNC(=O)c1cc2cc3c(cc2[nH]1)OCO3)c1cc2cc3c(cc2[nH]1)OCO3 | >200 µM
Cc1cc(S(=O)(=O)n2cccc2)c(SCC(N)=O)cc1Cl | 107 µM
O=C(NCc1ccccc1)c1cc2cc(O)c(O)cc2[nH]1 | 29 µM
CO[C@H]1N([C@H]2C[C@H](N=[N+]=[N-])[C@@H](CO)O2)C(=O)NC(=O)[C@]1(C)Br | >898 µM
O=C(C1=NS(=O)(=O)c2ccc(Cl)cc2S1)c1ccc(Cl)cc1 | >200 µM
Cc1ccnc2c1N(C(=O)CN1CCN(c3cc4c(cc3F)c(=O)c(C(=O)O)cn4C3CC3)CC1)C(=O)c1cccnc1N2C1CC1 | >200 µM
Cc1cc2c(cc1Cl)SC(C(=O)c1ccc([N+](=O)[O-])cc1)=NS2(=O)=O | 125 µM
CCn1cc(C(=O)O)c(=O)c2cc(F)c(N3CCN(CN4C(=O)C(=Nc5ccc(S(=O)(=O)Nc6nc(C)cc(C)n6)cc5)c5ccccc54)C(C)C3)c(F)c21 | 117 µM
O=C(NCCCNC(=O)c1cc2cc3c(cc2[nH]1)OCO3)c1cc2cc3c(cc2[nH]1)OCO3 | >200 µM
COc1cc(Cc2cnc(/N=C3\C(=O)N(CN4CCCC4)c4ccc(F)cc43)nc2N)cc(OC)c1OC | 121 µg/mL
O=C(NCc1ccc(O)c(O)c1)c1cc2cc(O)c(O)cc2[nH]1 | 33 µM
Cc1cc(S(=O)(=O)n2cccc2)c(Sc2cc(Cl)c(C)cc2S(=O)(=O)n2cccc2)cc1Cl | >200 µM
CCCCCCCCCCCCCCCC(=O)Nc1ccn([C@H]2CC[C@@H](COP(=O)(O)OCC(COP(=O)(O)OC[C@H]3O[C@@H](n4cc(C)c(=O)[nH]c4=O)C[C@@H]3N=[N+]=[N-])OC(=O)CCCCCCCCCCCCCCC)O2)c(=O)n1 | >1 µM
COc1c(N2CCN(CN3C(=O)C(=Nc4ccc(S(=O)(=O)Nc5nc(C)cc(C)n5)cc4)c4ccccc43)C(C)C2)c(F)cc2c(=O)c(C(=O)O)cn(C3CC3)c12 | 133 µM
C[C@]1(Br)C(=O)NC(=O)N([C@H]2C=C[C@@H](CO)O2)[C@@H]1N=[N+]=[N-] | 44.7 µM
NC(=O)CCNC(=O)c1ccccc1SCc1ccc(OP2(=O)OCc3ccccc3O2)cc1 | >50 µM
Cc1cc2c(cc1Cl)SC(C(=O)c1ccc3ccccc3c1)=NS2(=O)=O | >200 µM
COc1cc(Cc2cnc(/N=C3\C(=O)N(CN4CCN(c5cccc(Cl)c5)CC4)c4ccc(F)cc43)nc2N)cc(OC)c1OC | 104 µg/mL

3 of the rows above, restated:

compound | result
CCCCCCCCCCCCCCCC(=O)Nc1ccn([C@H]2CC[C@@H](COP(=O)(O)OCC(COP(=O)(O)OC[C@H]3O[C@@H](n4cc(C)c(=O)[nH]c4=O)C[C@@H]3N=[N+]=[N-])OC(=O)CCCCCCCCCCCCCCC)O2)c(=O)n1 | >1 µM
CO[C@H]1N([C@H]2C[C@H](N=[N+]=[N-])[C@@H](CO)O2)C(=O)NC(=O)[C@]1(C)Br | >898 µM
COc1ccc(N2CCN(CN3C(=O)C(=Nc4ccc(S(=O)(=O)Nc5nc(C)cc(C)n5)cc4)c4cc(F)ccc43)CC2)cc1 | 35.2 µM

CCn is the concentration with n% toxicity to the cells.